{"source": "paper PMC2770954", "origin": "cited, not measured here", "target": "HIV-1 reverse transcriptase p51 p51 (Human immunodeficiency virus 1) (UniProt O93215)", "settings": "cited from earlier work"}
{"substance": "HIV-1 reverse transcriptase p51 p51 (from UniProt O93215)", "values": [{"measurement": "Kd", "result": 230, "unit": "µM"}]}
